PubChem BioAssay AID624099 | ICCB-Longwood – 2012
Aim: 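Human genes that papillomavirus E2 requires to repress the HPV18 LCR promoter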 (primary screen). Cells: human C33A cervical carcinoma cells (HPV-negative) stably expressing BPV1 E2 and an HPV18 LCR luciferase reporter. Reagents: siRNA pool against human genes, 40 nM. Time to read-out: 72 h. Read-out: 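Per-well luciferase luminescence, z-scored on each plate against the plate mean and SD with control wells left out, then averaged across three replicate plates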. Reading the numbers: mean z-score and z-score: higher = stronger reporter signal, weaker E2 silencing. Active means: 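Mean z ≥ 2 together with z ≥ 2 in two or more of the three replicates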.
Shown is one part, drawn at random, of about 21,000 reagents. Of all reagents, 497 (2.4%) got an active call. 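Higher z means weaker E2 silencing; only reporter increases were scored, and knock-downs that hurt cell survival may mask genuine repressor factors.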 Reagents against one gene are numbered here.

target | reagent | mean z-score | z-score, replicate A | z-score, replicate B | z-score, replicate C | outcome
ALDH3A2 | 1 | -0.54 | -0.6 | -0.47 | -0.55 | inactive
CCDC150 | 1 | -0.01 | -0.18 | -0.12 | 0.28 | inactive
CCDC150 | 2 | 0.92 | 0.65 | 0.62 | 1.48 | inactive
LOC389904 (retired record) | 1 | 0.06 | 0.29 | -0.09 | -0.01 | inactive
DTNB | 1 | -0.91 | -1.05 | -0.75 | -0.91 | inactive
SRR | 1 | 1.68 | 1.55 | 1.67 | 1.81 | inactive
KAT2B | 1 | 0.25 | 0.13 | 0.36 | 0.25 | inactive
HSH2D | 1 | 0.72 | 0.32 | 0.57 | 1.28 | inactive
ARPP21 | 1 | -0.84 | -0.95 | -0.93 | -0.65 | inactive
ARPP21 | 2 | 0.39 | 0.34 | 0.29 | 0.54 | inactive
YBX1 | 1 | -1.1 | -1.02 | -1.34 | -0.93 | inactive
GPR174 | 1 | -0.83 | -0.93 | -0.9 | -0.65 | inactive
EGR2 | 1 | 0.17 | 0.07 | 0.29 | 0.15 | inactive
LOC401386 (retired record) | 1 | -0.67 | -0.4 | – | -0.95 | inactive
BHLHA9 | 1 | -0.84 | -0.81 | -0.67 | -1.04 | inactive
PARP9 | 1 | 0.46 | 0.09 | 0.7 | 0.58 | inactive
TSPAN15 | 1 | 1.17 | 1.14 | 1.08 | 1.28 | inactive
PNMA8A | 1 | -1.32 | -1.64 | -1.18 | -1.15 | inactive
KIF21A | 1 | 1.91 | 2.1 | 1.94 | 1.7 | inactive
METTL15 | 1 | 0.65 | 1.28 | 0.15 | 0.51 | inactive
BTD | 1 | -0.71 | -0.31 | -0.91 | -0.9 | inactive
LOC389129 (retired record) | 1 | -1.1 | -0.82 | -1.27 | -1.2 | inactive
SLC25A4 | 1 | -0.48 | -0.54 | -0.64 | -0.27 | inactive
OR5AU1 | 1 | -0.86 | -0.83 | -1.03 | -0.72 | inactive
TLE3 | 1 | 1.14 | 0.55 | 1.52 | 1.35 | inactive
SRPK3 | 1 | 1.32 | 1.58 | 1.24 | 1.14 | inactive
UTY | 1 | -1.13 | -1.18 | -1.14 | -1.07 | inactive
SYT16 | 1 | 0.75 | 0.8 | 0.69 | 0.76 | inactive

Limited to “z-score, replicate B” (7 entries from above):
SRR: 1.67
KAT2B: 0.36
HSH2D: 0.57
ARPP21 #1: -0.93
ARPP21 #2: 0.29
YBX1: -1.34
GPR174: -0.9

The listing continues:
target | reagent | mean z-score | z-score, replicate A | z-score, replicate B | z-score, replicate C | outcome
TIMM9 | 1 | 2.85 | 3.16 | 2.5 | 2.89 | active
RNASE11-AS1 | 1 | -0.66 | -0.52 | -1.15 | -0.3 | inactive
NPHP1 | 1 | 0.21 | 0.15 | 0.13 | 0.35 | inactive
PTPDC1 | 1 | -1.79 | -1.87 | -1.92 | -1.6 | inactive
DIXDC1 | 1 | -0.79 | -1.2 | -0.78 | -0.39 | inactive
EFTUD2 | 1 | -0.45 | -0.41 | -0.7 | -0.25 | inactive
SAMD14 | 1 | -0.81 | -1.09 | -0.53 | -0.82 | inactive
DNAJA3 | 1 | 0.04 | 0.37 | -0.29 | 0.05 | inactive
BTF3P10 | 1 | 0.05 | 0.37 | 0.04 | -0.27 | inactive
PYGB | 1 | -0.48 | -0.45 | -0.5 | -0.5 | inactive
TCF7 | 1 | -1.82 | -1.93 | -1.63 | -1.9 | inactive
NID1 | 1 | -0.75 | -0.44 | -0.77 | -1.05 | inactive
LINC01104 | 1 | -0.33 | -0.33 | -0.41 | -0.26 | inactive
LOC389667 (retired record) | 1 | -0.6 | -0.27 | -0.87 | -0.68 | inactive
ATP2A1 | 1 | -0.23 | -0.19 | -0.2 | -0.31 | inactive
TLR8 | 1 | 0.42 | 0.28 | 0.5 | 0.48 | inactive
SAMD13 | 1 | 1.33 | 1.14 | 1.36 | 1.5 | inactive
KLHL28 | 1 | -0.78 | -0.92 | -0.77 | -0.65 | inactive
HELQ | 1 | -0.14 | -0.44 | 0.05 | -0.03 | inactive
SLC67A1 | 1 | -0.74 | -0.92 | -0.66 | -0.62 | inactive
MAGEA9 | 1 | -1.43 | -1.45 | -1.24 | -1.59 | inactive
PPY2P | 1 | -1.42 | -1.6 | -1.14 | -1.52 | inactive
CR2 | 1 | 0.34 | 0.26 | 0.3 | 0.48 | inactive
MYADML | 1 | 1.01 | 0.8 | 0.94 | 1.28 | inactive
SPINK5 | 1 | -0.03 | -0.19 | 0.14 | -0.04 | inactive
XAB2 | 1 | 1.34 | 1.09 | 1.54 | 1.39 | inactive
KMT2D | 1 | -1.22 | -1.1 | -1.45 | -1.11 | inactive
SPINK4 | 1 | 1.16 | 0.5 | 1.4 | 1.58 | inactive
SRP9 | 1 | -0.04 | 0.01 | 0.05 | -0.19 | inactive
